Anti-infective test results gathered from many reports (values: NIAID ChemDB through PubChem).

All rows: whole-cell or culture tests; agent: Rhinovirus; measure: inhibition

Conditions beyond the fields shown may differ between rows. An empty or dashed field is not shown. a–b is a range or a potency band. Percent inhibition refers to the dose given; in toxicity tests it is the harm to the cells.

SMILES,method,strain,tested at,cells,result
CN(C)c1nc(C(F)(F)F)nc2c1ncn2Cc1cccc(F)c1,plaque count,Serotype 4,8 µM,M-HELA,34%
CC1(C)COC(c2ccc(OCCN3CCN(c4ccc(Cl)nn4)CC3)cc2)=N1,,17 serotypes,32 µg/mL,,53%
CN(C)c1nc(C(F)(F)F)nc2c1ncn2Cc1ccc(F)cc1,plaque count,Serotype 19,8 µM,M-HELA,22%
FC(F)(F)c1cccc(C2CCN(c3ccc(Cl)nn3)C2)c1,,17 serotypes,17 µg/mL,,71%
CN(C)c1nc(C(F)(F)F)nc2c1ncn2Cc1ccc([N+](=O)[O-])cc1,plaque count,Serotype 1A,4 µM,M-HELA,38%
O=C(O)Cc1csc(/N=C2\SC[C@@H]3Cc4ccccc4CN23)n1,cytopathic effect,Serotype 13,60 µg/mL,MRC-5,80–100%
O=S(=O)(O)c1cccc2c(O)cccc12,cytopathic effect,,50 µg/mL,Human embryonic lung cells,0%
CN(C)c1nc(C(F)(F)F)nc2c1ncn2Cc1ccccc1,plaque count,Serotype 5,8 µM,M-HELA,33%
Cc1cccc(C2=CCN(c3ccc(Cl)nn3)CC2)c1,,17 serotypes,5 µg/mL,,71%
O=C(Nc1c(S(=O)(=O)[O-])cc2cc(S(=O)(=O)[O-])cc(O)c2c1O)c1ccccc1,cytopathic effect,,5 µg/mL,Human amnion AV3 cells,5%
Cc1cccc(N2CCN(c3ccc(Br)nn3)CC2)c1,,17 serotypes,1.5 µg/mL,,53%
O=S(=O)(O)c1cc(O)c2c(O)c(N=Nc3ccccc3)c(S(=O)(=O)O)cc2c1,cytopathic effect,,10 µg/mL,Human embryonic lung cells,90%
CN(C)c1nc(C(F)(F)F)nc2c1ncn2Cc1ccc(S(C)(=O)=O)cc1,plaque count,Serotype 2,8 µM,M-HELA,36%
Nc1c(S(=O)(=O)[O-])cc2cc(S(=O)(=O)[O-])ccc2c1O,cytopathic effect,,50 µg/mL,Human embryonic lung cells,65%
CN(C)c1nc(C(F)(F)F)nc2c1ncn2Cc1ccc(Cl)c(N)c1,plaque count,Serotype 30,8 µM,M-HELA,34%
O=S(=O)(O)c1cc(O)c2c(O)cc(S(=O)(=O)O)cc2c1,cytopathic effect,,10 µg/mL,Human amnion AV3 cells,30%
CS(=O)(=O)c1ccc2c(c1)CCC(c1ccc(Cl)c(Cl)c1)O2,,100 serotypes,0.013 µg/mL,,18%
COc1cc(-c2ccc(N=Nc3ccc4c(S(=O)(=O)O)cc(S(=O)(=O)O)c(N)c4c3O)c(OC)c2)ccc1N=Nc1ccc2c(S(=O)(=O)O)cc(S(=O)(=O)O)c(N)c2c1O,cytopathic effect,,50 µg/mL,Human amnion AV3 cells,0%
CN(C)c1nc(C(F)(F)F)nc2c1ncn2Cc1ccc(Cl)c(NC=O)c1,plaque count,Serotype 13,8 µM,M-HELA,43%
O=S(=O)([O-])c1ccc2c(S(=O)(=O)[O-])cc(S(=O)(=O)[O-])cc2c1,cytopathic effect,,10 µg/mL,Human amnion AV3 cells,10%
N#Cc1cc([N+](=O)[O-])ccc1Oc1ccc(Cl)c(Cl)c1,,TYPE 1A,25 µg/mL,VERO,87%

For reference, 2 entries again:

FC(F)(F)c1cccc(C2CCN(c3ccc(Cl)nn3)C2)c1 ; strain: 17 serotypes ; tested at: 17 µg/mL ; result: 71%
Cc1cccc(N2CCN(c3ccc(Br)nn3)CC2)c1 ; strain: 17 serotypes ; tested at: 1.5 µg/mL ; result: 53%